How the values were obtained:
Assay in all cases: ELISA
Conditions in all cases: both partners purified
[1] = target: T1, NL63 nucleocapsid protein, recombinant (Human coronavirus NL63 (HCoV-NL63)., UniProt Q6Q1R8)
T1 construct: also called NL63 NP; source: bought: Sino Biological

Sequences of proteins named here, by UniProt entry; tags and fusion partners are left off. A change or cut given only in a name is not applied to a line headed by its entry.
UniProt Q6Q1R8: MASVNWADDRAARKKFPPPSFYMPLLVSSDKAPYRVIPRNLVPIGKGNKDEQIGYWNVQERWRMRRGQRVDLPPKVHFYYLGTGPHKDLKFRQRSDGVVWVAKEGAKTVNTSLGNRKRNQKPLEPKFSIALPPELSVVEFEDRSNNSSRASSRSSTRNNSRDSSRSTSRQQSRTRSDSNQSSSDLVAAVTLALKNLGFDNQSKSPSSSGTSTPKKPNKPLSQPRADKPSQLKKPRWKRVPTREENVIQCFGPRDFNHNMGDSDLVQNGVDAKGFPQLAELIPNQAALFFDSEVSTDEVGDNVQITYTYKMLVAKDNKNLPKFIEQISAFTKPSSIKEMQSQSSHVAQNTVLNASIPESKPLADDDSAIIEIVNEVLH
UniProt P33469: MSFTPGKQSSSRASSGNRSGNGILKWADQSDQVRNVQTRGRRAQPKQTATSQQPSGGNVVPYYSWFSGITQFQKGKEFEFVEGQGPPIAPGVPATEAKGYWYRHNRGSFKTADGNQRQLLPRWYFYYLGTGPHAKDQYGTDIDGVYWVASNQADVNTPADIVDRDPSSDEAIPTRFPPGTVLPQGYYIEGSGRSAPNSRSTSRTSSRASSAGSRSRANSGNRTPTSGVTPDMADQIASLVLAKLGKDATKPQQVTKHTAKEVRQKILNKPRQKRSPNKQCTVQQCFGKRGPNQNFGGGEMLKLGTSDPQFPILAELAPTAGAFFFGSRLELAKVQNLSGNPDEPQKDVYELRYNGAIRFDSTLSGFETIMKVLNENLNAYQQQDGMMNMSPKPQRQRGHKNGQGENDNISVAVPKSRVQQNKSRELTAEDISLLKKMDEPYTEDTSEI

[2] = target: T2, HKU1 nucleocapsid protein, recombinant (Human coronavirus HKU1 (isolate N1) …, UniProt Q5MQC6)
T2 construct: also called HKU1 NP; source: bought: Sino Biological

[3] = target: T3, OC43 nucleocapsid protein, recombinant (Human coronavirus OC43 (HCoV-OC43)., UniProt P33469)
T3 construct: also called OC43 NP; source: bought: Sino Biological

[4] = target: T4, MERS-CoV nucleocapsid protein, recombinant (MERS-CoV, strain , UniProt K9N4V7)
T4 construct: also called MERS-CoV NP; source: bought: Sino Biological

Measured: binding result

B1: P301-H5 (antibody, V domains shown)
VH: EVQLVESGGGLVQPGGSLKLSCAASGFTFSGSAMHWVRQASGKGLEWVGRIRSKANSYATAYAASVKGRFTISRDDSKNTAYLQMNSLKTEDTAVYYCNFRGAFDYWGQGTLVTVSS
VL: not shown
notes: source: 293 F cells, transient transfection, purified (Protein A beads)
no binding: all assays above

Reference: article PMC9142731 (Virology Journal, 2022)
